Measured values from several laboratories, pooled; numbers as filed in NIAID ChemDB.

Common to all: tests in culture; endpoint: EC50

ECn: concentration that inhibits the pathogen or its effect by n%. Neighbouring rows are from separate reports. An empty or dashed field is not shown.

| structure | read by | cell line | organism | strain or isolate | result |
|---|---|---|---|---|---|
| OC[C@H]1O[C@@H](n2cnc3c(NC4CCCCCC4)ncnc32)C[C@@H]1O | cytopathic effect | MDBK | Bovine herpesvirus 1 | IRB-LA | 50 µM |
| CCCCCCCCCN1C[C@H](O)[C@@H](O)[C@H](O)[C@H]1CO | plaque count | MDBK | Bovine viral diarrhea virus |  | 6 µM |
| OC[C@@H]1C[C@@H](O)[C@H](n2cnc3c(NC4CCCCC4)nc(Cl)cc32)O1 | cytopathic effect | MDBK | Bovine herpesvirus 1 | IRB-LA | >50 µM |
| O=c1c(O)c(-c2ccc(O)cc2)oc2cc(O)cc(O)c12 |  | VERO | Bovine herpesvirus 1 |  | 3.5 µg/mL |
| CC1(C)OCC(CCCCN2C[C@H](O)[C@@H](O)[C@H](O)[C@H]2CO)O1 | plaque count | MDBK | Bovine viral diarrhea virus |  | 30 µM |
| CCCCN1C[C@H](O)[C@@H](O)[C@H](O)[C@H]1CO | cytopathic effect | MDBK | Bovine viral diarrhea virus |  | >300 µM |
| OC[C@H]1O[C@@H](n2cnc3c(NC4CC4)ncnc32)[C@H](O)[C@@H]1O | cytopathic effect | MDBK | Bovine herpesvirus 1 | IRB-LA | >50 µM |
| NC(=O)c1ncn([C@@H]2O[C@H](CO)[C@@H](O)[C@H]2O)n1 | plaque count | MDBK | Bovine viral diarrhea virus |  | 1.1 µM |
| COCCCCCCCCCN1C[C@H](O)[C@@H](O)[C@H](O)[C@H]1CO | plaque count | MDBK | Bovine viral diarrhea virus |  | 3 µM |
| CCCC(=O)O[C@H]1CN2CC[C@H](O)[C@@H]2[C@@H](O)[C@@H]1O | cytopathic effect | MDBK | Bovine viral diarrhea virus |  | 47.2 µM |
| CCC(C)CCC[C@H](C)CCN1C[C@H](O)[C@@H](O)[C@H](O)[C@H]1CO | plaque count | MDBK | Bovine viral diarrhea virus |  | 12 µM |
| CCCCCCCCCN1C[C@H](O)[C@@H](O)[C@H](O)[C@H]1CO | plaque count | MDBK | Bovine viral diarrhea virus |  | 105 µM |
| OC[C@H]1O[C@@H](n2cnc3c(NC4CCCCCC4)nc(Cl)nc32)[C@H](O)[C@@H]1O | cytopathic effect | MDBK | Bovine herpesvirus 1 | IRB-LA | >50 µM |
| CCCC(=O)O[C@H]1CN2CC[C@H](O)[C@@H]2[C@@H](O)[C@@H]1O | cytopathic effect | MDBK | Bovine viral diarrhea virus |  | 52 µM |
| O=c1c(O)c(-c2ccccc2)oc2cc(O)cc(O)c12 |  | VERO | Bovine herpesvirus 1 |  | >15 µg/mL |

The last 2 rows once more:

structure	read by	cell line	organism	strain or isolate	result
CCCC(=O)O[C@H]1CN2CC[C@H](O)[C@@H]2[C@@H](O)[C@@H]1O	cytopathic effect	MDBK	Bovine viral diarrhea virus		52 µM
O=c1c(O)c(-c2ccccc2)oc2cc(O)cc(O)c12		VERO	Bovine herpesvirus 1		>15 µg/mL